In publication PMC9603901 (Microbiology Spectrum, 2022):
Strings that start with PEPTIDE1 are HELM notation: dots part the residues, brackets hold end groups and non-standard residues.

Experiment: peptide synthesis
Conditions: whole synthesis, 214 nm

Substance: PEPTIDE1{F.K.F.L.A.R.T.G.K.F.L.[am]}$$$$V2.0
- final HPLC purity: 99.7% purity
